# Patent US9901592B2 (priority 2008, dated 2018)
# Read-outs that look alike come from different tables or passages of the source.
# What was measured:
# Format in all cases: cell-based
# [1] = system: S. pyogenes
# [2] = system: S. pneumoniae
# [3] = system: S. pneumoniae; experiment: microbe, parasite or virus in culture; details: Streptococcus pneumoniae, read-out: Selected Resistance MIC, strain 7127 Macrolide-S [S20N in L4, A105V in L22], after serial passages in the drug
smiles,measurement,setting,value
"CCC[C@@H]1C[C@@H](C(=O)N[C@@H]([C@H]2O[C@H](SC)[C@H](O)[C@@H](O)[C@H]2O)[C@H](C)Cl)N(C)C1 [CLN, clindamycin]",Mutant selection frequencies,[1]; at 2×MIC,<7.7×10^−11-2.1×10^−7
same,Mutant selection frequencies,[1]; at 8×MIC,<7.7×10^−11-1.1×10^−7
same,Mutant selection frequencies,[2]; at 2×MIC,<2.4×10^−10-1.7×10^−4
same,Mutant selection frequencies,[2]; at 8×MIC,<1.2×10^−10-5.6×10^−7
same,MIC,[3],0.25 mg/L
